Pooled drug test results. Numbers come from NIAID ChemDB, via PubChem.

Shared fields: tests in culture; species: HIV-1; measure: EC50

Two numbers with a dash give a range or band. ECn: concentration that inhibits the pathogen or its effect by n%. An empty or dashed field is not shown. Rows are shuffled and stem from different studies.

SMILES | cell line | strain or isolate | read by | changes | result
NC(N)=NCCN1CCC(NC(=O)C(=O)Nc2ccc(Cl)cc2)CC12CCCCC2 | TZM-bl | YTA | single cycle | - | 6.8 µM
CNC(=O)c1c(O)c2ncc(Cc3ccc(F)cc3)c3c2n(c1=O)C[C@@](C)(C(=O)NCCO)O3 | MT-2 | IIIB | ATP / luminescence | - | 0.0305 µM
NC(N)=NCCCCC(=O)NCCN1CCC(NC(=O)C(=O)Nc2ccc(Cl)cc2)CC12CCCCC2 | TZM-bl | YTA | single cycle | - | 2.8 µM
Cc1cc(S(N)(=O)=O)ccc1NC(=O)COc1ccc(Cl)cc1C(=O)c1cc(F)cc(C#N)c1 | HeLa + HELA CD4+ | HXB2 | β-galactosidase | RT-V106A Y181C | <0.01 µM
CC(C)C1=C2[C@H]3CC[C@@H]4[C@@]5(C)CC[C@H](OC(=O)[C@H]6C[C@@H](C(=O)O)C6(C)C)C(C)(C)[C@@H]5CC[C@@]4(C)[C@]3(C)CC[C@@]2(CC(=O)NCc2ccc3nc[nH]c3c2)CC1=O | MT-2 | 92HT599 | p24 / ELISA | - | <1 µM
NCC(=O)NCCN1CCC(NC(=O)C(=O)Nc2ccc(Cl)cc2)CC12CCCCC2 | TZM-bl | YTA | single cycle | - | 9.8 µM
Cc1cc(N2CCS(=O)CC2)ccc1NC(=O)COc1ccc(Cl)cc1C(=O)c1cccs1 | MT-4 | Nevirapine-resistant (RT Y181C) | cytopathic effect / propidium iodide | RT-Y181C | 0.011–0.1 µM
Cc1ncn(CCNC(=O)c2c(O)c3ncc(Cc4ccc(F)cc4)c4c3n(c2=O)CC(F)(F)CN4)c1C | MT-2 | IIIB | ATP / luminescence | - | 0.015 µM
CC(C)C1=C2[C@H]3CC[C@@H]4[C@@]5(C)CC[C@H](OC(=O)[C@H]6C[C@@H](C(=O)O)C6(C)C)C(C)(C)[C@@H]5CC[C@@]4(C)[C@]3(C)CC[C@@]2([C@@H](O)CNC(=O)C(F)(CN)NC(=O)c2ccc(Cl)cc2)CC1=O | MT-2 | 92HT599 | p24 / ELISA | - | <1 µM
CCc1cc(C#N)cc(C(=O)c2cc(Cl)ccc2OCC(=O)Nc2ccc(S(N)(=O)=O)cc2C)c1 | MT-4 | IIIB | cytopathic effect / propidium iodide | - | <0.01 µM
CC(C)C1=C2[C@H]3CC[C@@H]4[C@@]5(C)CC[C@H](OC(=O)[C@H]6C[C@@H](C(=O)O)C6(C)C)C(C)(C)[C@@H]5CC[C@@]4(C)[C@]3(C)CC[C@@]2([C@@H](O)CNCC(C)(C)NC(=O)c2ccc(Cl)cc2OCCN2CCOCC2)CC1=O | MT-2 | 92HT599 | p24 / ELISA | - | <1 µM
CCNC(=O)[C@@H]1Cn2c(=O)c(C(=O)NCCO)c(O)c3ncc(Cc4ccc(F)cc4)c(c32)O1 | MT-2 | IIIB | ATP / luminescence | - | 0.0097 µM
CC(C)C1=C2[C@H]3CC[C@@H]4[C@@]5(C)CC[C@H](OC(=O)[C@H]6C[C@@H](C(=O)O)C6(C)C)C(C)(C)[C@@H]5CC[C@@]4(C)[C@]3(C)CC[C@@]2([C@@H](O)CNCc2ccc3ccccc3n2)CC1=O | MT-2 | 92HT599 | p24 / ELISA | - | <1 µM
Cc1sc(-c2ccc(C(N)=O)cc2)c(C2=CCC(C(C)C)CC2)c1C(OC(C)(C)C)C(=O)O | MT-4 | NL4-3 | ATP | - | 0.09 µM
CNC(=O)c1c(O)c2ncc(Cc3ccc(F)cc3)c3c2n(c1=O)C[C@H](CNC(C)(C)CO)O3 | MT-2 | IIIB | ATP / luminescence | - | 0.012 µM
CC(C)C1=C2[C@H]3CC[C@@H]4[C@@]5(C)CC[C@H](OC(=O)[C@H]6C[C@@H](C(=O)O)C6(C)C)C(C)(C)[C@@H]5CC[C@@]4(C)[C@]3(C)CC[C@@]2([C@@H](O)CNC(=O)C(C)(C)NC(=O)c2nccs2)CC1=O | MT-2 | 92HT599 | p24 / ELISA | - | <1 µM
Cc1cc(S(N)(=O)=O)ccc1NC(=O)COc1ccc(Cl)cc1C(=O)c1cc(F)cc(C(F)(F)F)c1 | HeLa + HELA CD4+ | HXB2 | β-galactosidase | RT-G190A | <0.01 µM
CCNC(=O)[C@@H]1Cn2c(=O)c(C(=O)NC)c(O)c3ncc(Cc4ccc(F)cc4)c(c32)O1 | MT-2 | IIIB | ATP / luminescence | - | 0.0041 µM
Cc1cc(C#N)cc(C(=O)c2cc(Cl)ccc2OCC(=O)Nc2ccc(S(N)(=O)=O)cc2C)c1 | HeLa + HELA CD4+ | HXB2 | β-galactosidase | RT-V108I Y181C | <0.01 µM
CNC(=O)c1c(O)c2ncc(Cc3ccc(F)cc3)c3c2n(c1=O)C[C@](C)(CO)O3 | MT-2 | IIIB | ATP / luminescence | - | 0.005 µM
Cc1noc(C)c1CNC(=O)C[C@@]12CC[C@]3(C)[C@H](CC[C@@H]4[C@@]5(C)CC[C@H](OC(=O)[C@H]6C[C@@H](C(=O)O)C6(C)C)C(C)(C)[C@@H]5CC[C@]43C)C1=C(C(C)C)C(=O)C2 | MT-2 | 92HT599 | p24 / ELISA | - | <1 µM
Cc1cc(S(N)(=O)=O)ccc1NC(=O)COc1ccc(Cl)cc1C(=O)c1cc(F)cc(F)c1 | HeLa + HELA CD4+ | HXB2 | β-galactosidase | RT-Y181C | <0.01 µM
C[C@]1(CO)Cn2c(=O)c(C(=O)NCCO)c(O)c3ncc(Cc4ccc(F)cc4)c(c32)O1 | MT-2 | IIIB | ATP / luminescence | - | 0.007 µM
Cc1cc(OCCCS(N)(=O)=O)ccc1NC(=O)COc1ccc(Cl)cc1C(=O)c1cc(F)cc(C(F)(F)F)c1 | HeLa + HELA CD4+ | HXB2 | β-galactosidase | RT-V106A Y181C | 0.011–0.1 µM
[2H]C([2H])([2H])CNC(=O)[C@@]1(C)Cn2c(=O)c(C(=O)NC)c(O)c3ncc(Cc4ccc(F)cc4)c(c32)O1 | MT-2 | IIIB | ATP / luminescence | - | 0.017 µM
NCCN(CCN)CCN1CCC(NC(=O)C(=O)Nc2ccc(Cl)cc2)CC12CCCCC2 | TZM-bl | YTA | single cycle | - | 6 µM
CCc1c(-c2coc(CC/C(C)=C/c3ccccc3)n2)oc(OC)c(C)c1=O | MT-4 | IIIB | cytopathic effect / thymidine uptake | - | <0.00066 µM

Again, the opening 2 rows:

SMILES,cell line,strain or isolate,read by,changes,result
NC(N)=NCCN1CCC(NC(=O)C(=O)Nc2ccc(Cl)cc2)CC12CCCCC2,TZM-bl,YTA,single cycle,-,6.8 µM
CNC(=O)c1c(O)c2ncc(Cc3ccc(F)cc3)c3c2n(c1=O)C[C@@](C)(C(=O)NCCO)O3,MT-2,IIIB,ATP / luminescence,-,0.0305 µM